# Measured values: US20240109955A1
# B1: B8 (antibody, V domains shown)
# VH: EVQLVESGGALIQPGGSLRLSCAASGIIVSANYMSWVRQAPGKGLEWVSVIYSGGSTFYADSVKGRFTISRDNSKNTLYLEMNSLRAEDTAVYYCARDAPILGVSDWGQGTLVTVSS
# VL: EIVMTQSPAILSVSPGERATLSCRASQSVAINLAWYQQKPGQAPRLLIYAASSRATGIPGRFSGSGSETNFTLTISSLQSGDFAVYYCQQYITWPPSYTFGQGTKLEIK
# B2: E8 (antibody, V domains shown)
# VH: QVTLRESGPALVKPTQTLTLTCTFSGFSLSTRGVCVSWIRQPPGKALEWLAFIDWDDDKYYNTSLKTRLTISKDTSKNQVVLTMTNVHPVDTATYYCARISSHHGSSWCTTFDYWGQGALVTVSA
# VL: DTVMTQSPLSLPVTPGEPASISCRSSQSLLNSNGYNYLDWYVQKPGQSPQLLIYLGSNRASGVPDRFSGSGSGTDFTLKISRVEAEDVGVYYCMQPLQTPLFTFGPGTKVEIK
# Target: SARS-CoV-2 spike protein, Omicron sublineage BA.2.75.2 (SARS-CoV-2), P0DTC2
# Experiment: cell-based or functional assay
Binder,IC50 (pseudovirus neutralization) [nM],IC80 (pseudovirus neutralization) [nM]
B1,12.2,27.4
B2,1.72,5.9
